Results of unrelated studies side by side (data: NIAID ChemDB).

Common to all: host cell toxicity; cells: MRC-5; measure: CC50

CCn is the concentration with n% toxicity to the cells. Blank or dashed fields: not listed here. Rows are shuffled and stem from different studies.

smiles	method	value
COc1ccc2c(c1)C=C1Cn3c-2c(C2CCCCC2)c2ccc(cc23)C(=O)NS(=O)(=O)N(C)CCOCCN(C)C1=O	resazurin	>50 µM
O=C(C1=NN(c2ccccc2)C2C3N(c4ccccc4)N=C(C(=O)c4ccccc4)N3c3ccccc3N12)c1ccccc1	resazurin	64 µM
O=C(OC[C@H]1O[C@@H](OC(=O)c2cc(O)c(O)c(O)c2)[C@H](OC(=O)c2cc(O)c(O)c(O)c2)[C@@H](OC(=O)c2cc(O)c(O)c(O)c2)[C@@H]1OC(=O)c1cc(O)c(O)c(O)c1)c1cc(O)c(O)c(O)c1	XTT	745 µM
CC(C)NCCNc1ccnc2cc(Cl)ccc12	fluorescence	0.064 µM
CCO/N=C/c1ccc(OCCC2CCN(c3ccc(C)nn3)CC2)cc1OC	neutral red	>0.1 µg/mL
Nc1nc2c(ncn2CO[C@H](CO)CCP(=O)(O)O)c(=O)[nH]1	visual reading	1023 µM
Nc1nc(=S)n([C@@H]2O[C@H](CO)[C@@H](O)[C@@H]2O)cc1/C=C/c1ccccc1	-	>258.7 µM
CCO/N=C/c1ccc(OCCCCCOc2ccc(Cl)nn2)cc1	neutral red	>0.5 µg/mL
CC1(C)C(=O)C=C[C@]2(C)C3CC[C@@]4(C)[C@H](c5ccoc5)OC(=O)[C@H]5O[C@]54C3[C@H](O)[C@H](O)C12	resazurin	>219 µM
Cc1cn([C@H]2C[C@H](O)[C@@H](CO)O2)c(=S)nc1N	-	>300.8 µM
C/C=C(\COC(=O)C(C)(C)C)C(CCN=[N+]=[N-])[C@@](C)(O)c1cc2ccccc2[nH]1	MTT	54 µg/mL
FC(F)(F)c1cc(Cl)c2cc(-c3ccccc3)cn2c1	MTT	>500 µM
CO/N=C/c1ccc(OCCC2CCN(c3ccc(C)nn3)CC2)c(C)c1	neutral red	>0.1 µg/mL
Nc1nc2c(ncn2COCC(O)CCP(=O)(O)O)c(=O)[nH]1	visual reading	1686 µM
CCO/N=C(\C)c1cc(OC)c(OCCC2CCN(c3ccc(Cl)nn3)CC2)c(OC)c1	visual reading	>50 µg/mL
COc1ccc2c(c1)[C@@H]1C[C@]1(C(=O)N1[C@@H]3CC[C@H]1CN(C)C3)Cn1c-2c(C2CCCCC2)c2ccc(C(=O)NS(=O)(=O)N(C)C)cc21	resazurin	18 µM
COc1ncnc2c1ccn2[C@@H]1O[C@H](CO)[C@@H](O)[C@H]1O	MTT	>100 µg/mL
O=C1NCc2ccccc2OCC/C=C/c2cncc3ccc1nc23	neutral red	1.8 µg/mL
Nc1nc2c(ncn2COC(CO)CO)c(=O)[nH]1	MTT	>200 µg/mL
CCO/N=C/c1ccc(OCC2CCN(c3ccc(Cl)nn3)CC2)cc1	visual reading	>1 µg/mL
COCC(CCP(=O)(O)O)OCn1cnc2c(Cl)nc(N)nc21	visual reading	>2263 µM
CCCCCCCCCCc1nccn(COCCO)c1=O	MTT	>100 µM
Brc1ccc(-c2cc3ccccn3c2)cc1	MTT	>500 µM
Nc1nc2c(ncn2COC(CO)CO)c(=O)[nH]1	MTT	>250 µM
CCc1cn([C@H]2C[C@H](O)[C@@H](CO)O2)c(=S)nc1N	-	>288.6 µM
Cc1cc(C=O)cc(C)c1Oc1cc(Nc2ccc(C#N)cc2)nc2ccccc12	MTT	69.8 µM
CC(COCP(=O)(O)O)n1cnc2c(=O)[nH]c(N)nc21	XTT	>330 µM
Brc1sccc1-c1cc2ccccn2c1	MTT	500 µM
O=c1[nH]c(=S)n([C@@H]2O[C@H](CO)[C@@H](O)[C@@H]2O)cc1CCO	-	>244.8 µM
FC(F)(F)Oc1ccc(-c2cc3ccccn3c2)cc1	MTT	100 µM
Cc1cn([C@@H]2O[C@H](CO)[C@@H](O)[C@@H]2O)c(=S)nc1N	-	>275.1 µM
CCO/N=C/c1ccc(OCCC2CCN(c3ccc(Cl)nn3)CC2)cc1O	visual reading	>1 µg/mL
C=Cc1cn([C@H]2C[C@H](O)[C@@H](CO)O2)c(=S)[nH]c1=O	-	>290.3 µM
CCO/N=C/c1ccc(OCCC2CCN(c3ccc(Cl)nn3)CC2)c(OC)c1	neutral red	>0.1 µg/mL
CCc1cn([C@H]2C[C@H](O)[C@@H](CO)O2)c(=S)[nH]c1=O	-	>288.6 µM
NNC(=O)c1ccncc1	MTS	>25 µM
CO/N=C(\C)c1ccc(OCCC2CCN(c3ccc(Cl)nn3)CC2)c(OC)c1	visual reading	>1 µg/mL
O=S1(=O)N=C(OCC2CCCCC2)c2ccccc2N1Cc1ccc(Cl)cc1	-	2.3 µM
O=C(NCc1cccs1)c1nn2c(c1Cl)N[C@H](c1ccco1)C[C@@H]2C(F)(F)F	ATP	>100 µM

Repeating the first 2 entries:

{"smiles": "COc1ccc2c(c1)C=C1Cn3c-2c(C2CCCCC2)c2ccc(cc23)C(=O)NS(=O)(=O)N(C)CCOCCN(C)C1=O", "method": "resazurin", "value": ">50 µM"}
{"smiles": "O=C(C1=NN(c2ccccc2)C2C3N(c4ccccc4)N=C(C(=O)c4ccccc4)N3c3ccccc3N12)c1ccccc1", "method": "resazurin", "value": "64 µM"}